{
  "source": "patent US20070112179A1",
  "key": {"[1]": {"molecular_target": "1F TAA on Colo205 cells"}, "[2]": {"molecular_target": "A3 tumour-associated antigen on Colo205 cells (identified in Example 5 as α6β4 integrin) (human) (UniProt P23229)"}, "[3]": {"molecular_target": "A3 tumour-associated antigen on Colo205 cells (identified in Example 5 as α6β4 integrin), human, P23229 24-1083; P16144 52-1822"}},
  "note": "Values joined by “and” are separate entries in the source; they are usually repeats but may differ in a detail not shown here. Equal values may be shown once.",
  "data": [
    {"substance": "1F scFv-SEA(D227A) fusion protein (from UniProt P0A0L2 25-257)", "values": [
      {"measurement": "million sites/cell", "setting": "[1]", "result": 180000, "unit": "sites/cell"}
    ]},
    {"substance": "A3 Fab-SEA(D227A) fusion protein (from UniProt P0A0L2 25-257)", "values": [
      {"measurement": "Kd", "setting": "[2]", "result": "0.58 µM and 0.78 µM"}
    ]},
    {"substance": "A3 scFv-SEA(D227A) fusion protein", "values": [
      {"measurement": "Kd", "setting": "[3]", "result": "0.0036 to 0.0055", "unit": "µM"}
    ]}
  ]
}
